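Phenotypic screen: M. tuberculosis growth, glucose 7H9 medium, 3 days; the read-out is not stated. Concentration: 500 µM. Higher reads as more growth inhibition (inferred: compounds with an IC50 in retests scored well above the rest). Size under these conditions: about 18,000 compounds, about 1,400 of them at 50% or above in at least one test.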

Each number is a percent effect as filed.
The controls that fix the scale are not given in the record; negative values are as filed.
The entries come from a sample that favours strong results.

Compound | Percent Effect
CC(=O)N(C)CC(=O)N1CCSCC1 | -4.374%
Cc1c[nH]c(CN(C)C(=O)CC2CN(C)CCN2C)n1 (centres undefined) | -3.066%
Cn1ncc(N2CCCO2)c(Cl)c1=O | 2.498%
O=C(Nc1ccnc(CO)c1)c1ccc(F)cc1I | 87.35%
CCn1ccnc1CNC(=O)c1ccc2c(c1)CCO2 | -1.81%
Nc1cc(-c2cccnc2)nn1CCO | 7.549%
CC(=O)Nc1ccc(-n2nc(C)cc2C)nc1 | 49%
O=C(CCCc1ccccc1)NCc1ccccn1 | 65.64%
COc1nc(C)cc(C)c1CN | 21.66%
Nc1nc(C2CC(O)C2)cc(N2CC(O)C2)n1 (centres undefined) | 10.06%
COCCCC(=O)N1CCN(CC(C)O)CC1 (centres undefined) | 4.665%
c1nc(C2CNCCO2)no1 (centres undefined) | -6.725%
CCn1c(=O)n(CCC(=O)NC(N)=O)c2ccccc21 | 0.04916%
CCc1nnsc1C(=O)N1CC(C)(C)C(C)(O)C1 (centres undefined) | 5.423%
COc1cc(N2CCNCC2)ccc1F | 54.37%
CC(Cc1ccco1)NC(=O)Cn1cc(Br)ccc1=O (centres undefined) | 26.11%
CCc1nnc(N2CCN(C(=O)c3ccco3)CC2)o1 | 27.35%
O=C1CCC(=O)N1CCOc1cccc(F)c1 | 27.9%
CC(=O)c1csc(NC(=O)Cc2ccc(C)nc2)n1 | 39.52%
NCc1nc(-c2ccc(Cl)cc2)c[nH]1 | 72.19%
CCOC(=O)c1cnc(C(=O)Nc2nncs2)c(Cl)c1 | -13.45%
NS(=O)(=O)NC(c1cc(F)ccc1F)C1CC1 (centres undefined) | 11.53%
OCCNC1CCN(c2ncc(Cl)cn2)CC1 | -5.608%
NC[C@@H]1CC(=O)N(C2CC2)[C@H]1c1cccnc1 | 7.723%
COCCN(Cc1ccsc1)C(=O)[C@@H]1C[C@H](N)CN1C | 43.63%
N[C@@H]1CCN(C(=O)CCc2ccc(F)cc2)C1 | 35.26%
CSCc1cccc(CNC(=O)c2ccon2)c1 | 49.35%
O=C(NCCc1cccs1)C1CCNCC1 | 44.94%
Cc1occc1C(=O)NCC(C)CN1CCOCC1 (centres undefined) | 9.787%
N#Cc1ccc(OCC(=O)Nc2ccccn2)cc1 | 47.66%
O=C(c1c[nH]c(=O)c2ccccc12)N1CCOCC1 | 2.198%
O=C(c1cnsn1)N1CCN(Cc2ccc(Cl)s2)CC1 | 86.7%
COCC(C)(C)C(=O)NCc1cc(F)ccc1C | 13.83%
CCc1cnccc1C(=O)NCCc1cncn1C | -1.208%
CC[C@H]1COCCN1C(=O)CCCn1cccn1 | -4.731%
CCC(O)(CC)CCN | 4.718%
NC(=O)CCNC1CCOc2ccccc21 (centres undefined) | 0.9758%
CC(c1ccccn1)N(C)S(C)(=O)=O (centres undefined) | 7.752%
Cc1nc(CNC(=O)c2ccccc2)no1 | 5.577%
COc1ccc(Cl)cc1-n1nnc(C(N)=O)c1N | 40.05%
COc1cccc(CNc2ccccn2)c1O | 53.37%
CCCN1CCC(NC(=O)NCC(O)C2CC2)CC1 (centres undefined) | -5.475%
CC(C(=O)Nc1ccc(Br)cc1)n1cnnn1 (centres undefined) | 72.61%
CC1CN(c2nc(-c3ccccc3)ns2)CCS1(=O)=O (centres undefined) | -3.019%
COCCSCC(=O)Nc1cccc(C#N)c1 | 29.73%
O=S(=O)(NCCN1CCCC1)c1c(F)cccc1F | 14.83%
Fc1cnc2[nH]ccc2c1 | -10.18%
CCn1ccc(CN2CC[C@](C)(O)C(C)(C)C2)n1 | 3.901%
CN(C)C(=O)COC(=O)c1ccc2ccccc2n1 | 57.85%
CC(c1ccccn1)N1CCCSCC1 (centres undefined) | 9.788%
Cc1noc(C)c1C(=O)N1CCOc2ccccc21 | 23.46%
CC(CS(C)(=O)=O)NC(=O)c1ccc(C#N)cc1 (centres undefined) | 2.907%
CN(C)c1ccnc(NC(=O)c2cnsn2)c1 | 5.229%
COc1cc(C#N)ccc1S(=O)(=O)N1CCCC1CN (centres undefined) | 29.07%
CCc1nc(CCNC(=O)[C@@H](N)C(C)(C)C)no1 | 12.63%
CC(C)Cc1noc(-c2ccc(N(C)CCO)nc2)n1 | 69.77%
CC(=O)c1ccc(NCC(=O)NC(C)C(C)C)cc1 (centres undefined) | 58.2%
COC(=O)N1CCC(Nc2nnc(C(F)(F)F)s2)CC1 | 56.92%

The first 5 entries again:

| Compound | Percent Effect |
|---|---|
| `CC(=O)N(C)CC(=O)N1CCSCC1` | -4.374% |
| `Cc1c[nH]c(CN(C)C(=O)CC2CN(C)CCN2C)n1` (centres undefined) | -3.066% |
| `Cn1ncc(N2CCCO2)c(Cl)c1=O` | 2.498% |
| `O=C(Nc1ccnc(CO)c1)c1ccc(F)cc1I` | 87.35% |
| `CCn1ccnc1CNC(=O)c1ccc2c(c1)CCO2` | -1.81% |

Source: ChEMBL document CHEMBL3988442, “University of Dundee, Small-Polar-MMV Screening Library” (2021).